These are literature values, as cited in PMC9271922.

The target in the data set is TLR4 (Homo sapiens) (UniProt O00206).

For orientation: Kd means the free concentration of one partner at which half of the binding sites on the other are occupied at equilibrium, for simple one-to-one binding. For the substance “Spike protein trimer (from UniProt P0DTC2)”, the Kd was 300 nM.
